Anti-infective test results gathered from many reports (values: NIAID ChemDB through PubChem).

Common to all: tests in culture; organism: Candida albicans

Lines come from different laboratories, so protocols vary.

compound	strain or isolate	method	setting	endpoint	tested at	result
C[C@H]1[C@H](O)[C@@H](C)/C=C/C=C/C=C/C=C/C=C/C=C/C=C/[C@H](O[C@@H]2O[C@H](C)[C@@H](O)[C@H](N)[C@@H]2O)C[C@@H]2O[C@](O)(C[C@@H](O)C[C@@H](O)CC[C@H](O)[C@@H](O)C[C@@H](O)CC(=O)O[C@H]1C)C[C@H](O)[C@H]2C(=O)O	20 isolates	-	-	inhibition	0.4 µg/mL	50%
C=C(Cl)CN1C[C@H](OCC23C[C@@H]4[C@H](C)CC[C@H]4C4(C=O)CC2C=C(C(C)C)C34C(=O)O)O[C@H](C)C1	22 isolates	-	-	MIC95	-	0.06 µg/mL
c1ccc(C[C@H]2CN=C3N(CCC45CC6CC(CC(C6)C4)C5)[C@@H](Cc4ccccc4)CN32)cc1	ATCC 10231	-	-	EC50	-	24.9 µg/mL
C=C(C)C1CCC(C)CC1O	ATCC 90028	broth dilution	-	MIC99.9	-	>8000 µg/mL
O=[N+]([O-])c1cc(CSc2cccc[n+]2[O-])cc([N+](=O)[O-])c1	ATCC 44859	broth dilution	48 h	EC80	-	>500 µM
C=C(C)C1CC=C(C)CC1	ATCC 90028	broth dilution	-	MIC50	-	>8000 µg/mL
Cc1c(SCCN)c(F)cn2c(=O)c(C(=O)O)cc(C3CC3)c12.O=C(O)C(F)(F)F	CCH442	-	-	MIC	-	>100 µg/mL
C1CCC([C@H]2CN=C3N2C[C@@H](C2CCCCC2)N3CCC23CC4CC(CC(C4)C2)C3)CC1	ATCC 10231	-	-	EC50	-	9.9 µg/mL
O=[N+]([O-])c1cc(CSc2nnnn2C2CCCCC2)cc([N+](=O)[O-])c1	ATCC 44859	broth dilution	24 h	EC80	-	>500 µM
Oc1ccc(C=Nc2ccc3cccc(O)c3n2)cc1	-	-	-	MIC80	-	15.63 µg/mL
CC1=C(N2C[C@H](O)C[C@@H]2CN)C(F)=CN2C(=O)C(C(=O)O)=CC(C3CC3)C12	CCH442	-	-	MIC	-	>100 µg/mL
COc1cc(C=O)cc(OC)c1OC	ATCC 90028	broth dilution	-	MIC99.9	-	4000 µg/mL
N[C@H]1CCS[C@H]1C(=O)O	-	-	-	EC50	-	>256 µg/mL
C=C1CC[C@H]2C[C@@H]1C2(C)C	ATCC 90028	broth dilution	-	MIC99.9	-	1000 µg/mL
Nc1nc(=O)n([C@H]2CS[C@@H](CO)O2)cc1F	183 strains	-	-	MIC50	-	0.125 µg/mL
Cc1c(N)nc([C@H](CC(N)=O)NC[C@H](N)C(N)=O)nc1C(=O)N[C@H](C(=O)N[C@H](C)[C@@H](O)[C@H](C)C(=O)N[C@H](C(=O)NCCc1nc(-c2nc(C(=O)NCCC[S+](C)C)cs2)cs1)[C@@H](C)O)C(O[C@@H]1O[C@@H](CO)[C@@H](O)[C@H](O)[C@@H]1O[C@H]1O[C@H](CO)[C@@H](O)[C@H](OC(N)=O)[C@@H]1O)c1cnc[nH]1	Isolate 94-75	-	-	MLC	-	50 µg/mL
C[C@@H](c1ncncc1F)[C@](O)(Cn1cncn1)c1ccc(F)cc1F	85 strains (fluconazole-resistant)	-	-	MIC90	-	>8 µg/mL
CCN1C2=NC[C@H](CC3CCCCC3)N2C[C@@H]1Cc1ccccc1	ATCC 10231	-	-	EC50	-	>64 µg/mL
CCC(C)CC(C)CCCCCCCCC(=O)NC1C[C@@H](O)[C@@H](O)NC(=O)[C@@H]2[C@@H](O)CCN2C(=O)[C@H]([C@@H](O)CC(N)=O)NC(=O)[C@H]([C@H](O)[C@@H](O)c2ccc(OP(=O)([O-])O)cc2)NC(=O)[C@@H]2C[C@@H](O)CN2C(=O)[C@H]([C@H](C)O)NC1=O.[Na+]	MY1208	-	-	MFC	-	4 µg/mL
Cc1ccc2c([N+](=O)[O-])cc([N+](=O)[O-])c(O)c2n1	-	-	-	MIC80	-	62.5 µg/mL
C=C1C[C@H](N)[C@@H]1C(=O)O	-	-	-	EC50	-	>256 µg/mL
CCO[C@@H]1C[C@@H]([C@H](C)[C@H]2CC[C@]3(C)C4=C(CC[C@@]23C)[C@]2(C)CC[C@H](O)C(C)(C)[C@H]2CC4)CC[C@@H]1C	MTCC 183	agar diffusion / agar	-	zone	5 µg/disc	23 mm
Cc1c(N2CCC(n3cccc3)CC2)c(F)cn2c(=O)c(C(=O)O)cc(C3CC3)c12	CCH442	-	-	MIC	-	>100 µg/mL
CCC(C)n1ncn(-c2ccc(N3CCN(c4ccc(OC[C@H]5CO[C@](Cn6cncn6)(c6ccc(Cl)cc6Cl)O5)cc4)CC3)cc2)c1=O	Isogenic isolate 13 Erg11 (4-5X) R467K	-	-	MIC	-	0.06 µg/mL
O=[N+]([O-])c1cc(CSc2nnnn2-c2ccc(Cl)c(Cl)c2)cc([N+](=O)[O-])c1	ATCC 44859	broth dilution	24 h	EC80	-	>125 µM
CC(=O)c1cn(Cc2nnn(CC(=O)NN)n2)c2ccccc12	-	agar	-	MIC99	-	110 µg/mL
CC(C)(C)[C@](O)(COc1ccc(Cl)cc1)Cn1cncn1	-	-	-	MLC50	-	>0.08 µg/mL
CCN1C2=NC[C@H](Cc3ccccc3)N2C[C@@H]1C1CCCCC1	ATCC 10231	-	-	EC50	-	>64 µg/mL
CC(=O)OC/C=C(\C)CCC=C(C)C	ATCC 90028	broth dilution	-	MIC99.9	-	>8000 µg/mL
O=C(O)c1cccc(-n2nnnc2SCc2cc([N+](=O)[O-])cc([N+](=O)[O-])c2)c1	ATCC 44859	broth dilution	48 h	EC80	-	>500 µM
N[C@H]1CC=CC[C@H]1C(=O)O	-	-	-	EC50	-	128 µg/mL
COc1ccccc1C=O	1131	agar diffusion / agar	-	MIC90	-	500–600 µg/mL
C[C@H]1[C@H](O)[C@@H](C)/C=C/C=C/C=C/C=C/C=C/C=C/C=C/[C@H](O[C@@H]2O[C@H](C)[C@@H](O)[C@H](N)[C@@H]2O)C[C@@H]2O[C@](O)(C[C@@H](O)C[C@@H](O)CC[C@H](O)[C@@H](O)C[C@@H](O)CC(=O)O[C@H]1C)C[C@H](O)[C@H]2C(=O)O	85 strains (fluconazole-resistant)	-	-	MIC50	-	1 µg/mL
C=C1CC(N)[C@H](c2nn[nH]n2)C1	-	-	-	EC50	-	128 µg/mL
CCCCCOc1ccc(-c2ccc(-c3ccc(C(=O)N[C@H]4C[C@@H](O)[C@@H](O)NC(=O)[C@@H]5[C@@H](O)[C@@H](C)CN5C(=O)[C@H]([C@H](C)O)NC(=O)[C@H]([C@H](O)[C@@H](O)c5ccc(O)cc5)NC(=O)[C@@H]5C[C@@H](O)CN5C(=O)[C@H]([C@H](C)O)NC4=O)cc3)cc2)cc1	183 strains	-	-	MIC50	-	0.125 µg/mL
CC1=C(N2CCC(NCC(F)(F)F)C2)C(F)=CN2C(=O)C(C(=O)O)=CC(C3CC3)C12	CCH442	-	-	MIC	-	>100 µg/mL
C[C@H](CCC(=O)NCCNCCNC(=O)CC[C@@H](C)[C@H]1CCC2C3C(C[C@H](C)[C@@]21O)[C@@]1(C)CC[C@@H](O)CC1C[C@H]3O)[C@H]1CCC2C3C(C[C@H](C)[C@@]21O)[C@@]1(C)CC[C@@H](O)CC1C[C@H]3O	Isolate 4	-	-	MIC	-	0.011 µM
Clc1ccc(COC(Cn2ccnc2)c2ccc(Cl)cc2Cl)cc1	75 strains	agar diffusion / agar	-	inhibition	10 µg/mL	35%
O=[N+]([O-])c1cc(C[Se]c2nnnn2C2CCCCC2)cc([N+](=O)[O-])c1	ATCC 44859	broth dilution	48 h	EC80	-	>500 µM
CC(C)(C)C1CCC(CN2C3=NC[C@@H](C4CCCCC4)N3C[C@@H]2CC2CCCCC2)CC1	ATCC 10231	-	-	EC50	-	3.5 µg/mL
CN(C/C=C/C#CC(C)(C)C)Cc1cccc2ccccc12	CI_4	-	-	MIC90	-	8 µg/mL
Oc1cccc2ccc(/C=C/c3cccc(Cl)c3)nc12	-	-	-	MIC80	-	7.81 µg/mL
CC1CC[C@@H](C(=O)O)[C@H]1N	-	-	-	EC50	-	128 µg/mL
Clc1ccc(COC(Cn2ccnc2)c2ccc(Cl)cc2Cl)c(Cl)c1	MD 37	broth dilution	-	MFC100	-	32 µg/mL
C[C@H](Cc1ccc(O)c(O)c1)[C@@H](C)Cc1ccc(O)c(O)c1	CCC 129-2000	broth dilution	-	MIC100	-	250 µg/mL
C[C@@H]([C@H]1CC[C@H](C)C(=O)C1)[C@H]1CC[C@]2(C)C3=C(CC[C@@]12C)[C@]1(C)CC[C@H](O)C(C)(C)[C@H]1CC3	MTCC 183	agar diffusion / agar	-	zone	10 µg/disc	29 mm
CCC[C@H](N)C1CCN(c2c(F)cn3c(=O)c(C(=O)O)cc(C4CC4)c3c2C)C1	CCH442	-	-	MIC	-	50 µg/mL
CCCCCCCCC/C=C\C(=O)O	SC5314	XTT	-	inhibition	300 µM	90%
Cc1c(N2CC[C@H](NC(=O)[C@H](C)N)C2)c(F)cn2c(=O)c(C(=O)O)cc(C3CC3)c12	CCH442	-	-	MIC	-	>100 µg/mL
Cc1cc(C2CCCCC2)n(O)c(=O)c1	75 strains	agar diffusion / agar	-	inhibition	10 µg/mL	75%
CCN1C2=NC[C@H](Cc3ccccc3)N2C[C@@H]1CC1CCCCC1	ATCC 10231	-	-	EC50	-	>64 µg/mL
CC(C)C12CCC(C)(CC1)O2	ATCC 90028	broth dilution	-	MIC99.9	-	>8000 µg/mL
C[C@@H]1[C@H](O)[C@@H](C)/C=C/C=C/CC/C=C/C=C/C=C/C=C/C(O[C@H]2O[C@H](C)[C@@H](O)[C@H](N)[C@@H]2O)CC2O[C@](O)(CC(O)C(O)CCC(O)CC(O)CC(O)CC(=O)O[C@H]1C)CC(O)C2C(=O)O	75 strains	agar diffusion / agar	-	inhibition	10 µg/mL	67%
N[C@H]1CC(F)(F)C[C@H]1C(=O)O	-	-	-	EC50	-	128 µg/mL
CC1=C(N2CCC(CNCCF)C2)C(F)=CN2C(=O)C(C(=O)O)=CC(C3CC3)C12	CCH442	-	-	MIC	-	>100 µg/mL
CC(=O)OCCOCCn1nnc(Cn2cc(C(C)=O)c3ccccc32)n1	-	agar	-	MIC99	-	150 µg/mL
CC(C)=CCC/C(C)=C/CO	ATCC 90028	broth dilution	-	MIC99.9	-	>8000 µg/mL
C=C(Cl)/C=C/[C@H](O)CC(=C)C[C@H]1OC2[C@@H](O)[C@]3(O)C[C@@H](O)[C@H](C)[C@H](CCC/C=C\[C@@H]4C[C@@H](O)C[C@]5(C[C@H](OC)CC(CC(=O)[C@@H](C)[C@H](OC(C)=O)[C@@H](C)C(=C)C[C@@H]6C[C@@](C)(O)C[C@]7(C[C@H](OC(C)=O)CC(CC(=O)O[C@@H]([C@@H]1O)[C@H]2C)O7)O6)O5)O4)O3	ATCC 90028	-	-	MFC	-	6.25 µg/mL

ECn: concentration that inhibits the pathogen or its effect by n%. A number after MIC or MFC names an inhibition level or a share of isolates. An empty or dashed field is not shown. Zones are inhibition diameters on agar. a–b is a range or a potency band. Percent inhibition refers to the dose given; in toxicity tests it is the harm to the cells.